Pooled drug test results. Numbers come from NIAID ChemDB, via PubChem.

Common to all: tests on isolated targets; organism: Pneumocystis carinii

An empty or dashed field is not shown.

structure,target,dose,read-out,read by,value
Cc1cc(NC(=O)Oc2ccc3c(C)cc(=O)oc3c2)cc(Br)c1NC(=O)Oc1ccc2c(C)cc(=O)oc2c1,DHFR,-,IC50,-,90 µM
COc1ccc(NS(=O)(=O)c2ccc(N)cc2)nn1,DHPS,-,IC50,-,0.017 µM
CN(Cc1cnc2nc(N)nc(N)c2n1)c1ccc(C(=O)NC(CCC(=O)NC(CCC(=O)O)C(=O)O)C(=O)O)cc1,Dihydrofolate reductase,-,IC50,-,0.0002 µM
CCc1nc(N)nc(N)c1-c1ccc(Cl)c(Cl)c1,DHFR,-,IC50,-,1.08 µM
Nc1nc(N)c2c(n1)CCCc1cc(Cl)c(Cl)cc1-2,Dihydrofolate reductase,-,IC50,-,1.3 µM
CCc1nc(N)nc(N)c1-c1ccc(N(CC)Cc2ccccc2)c([N+](=O)[O-])c1,DHFR,-,IC50,-,5.7 µM
Cc1cc(NS(=O)(=O)c2ccc(N)cc2)no1,DHPS,-,IC50,-,0.023 µM
Nc1nc(N)c(-c2ccc(Cl)cc2)c(CNc2cccc([N+](=O)[O-])c2)n1,DHFR,-,IC50,-,17 µM
COc1cc(Cc2cnc(N)nc2N)cc(OC)c1OC(C)(C)O,DHFR,-,IC50,-,24.8 µM
CCOC(=O)c1ccc(NC(=O)Nc2cc(Cl)ccc2Oc2ccccc2)cc1,DHFR,100 µM,inhibition,-,17%
CN(Cc1cnc2nc(N)nc(N)c2n1)c1ccccc1,Dihydrofolate reductase,-,IC50,-,10 µM
Nc1nc(N)c(-c2ccc(Cl)c(Cl)c2)c(/C=C/Cc2ccccc2)n1,DHFR,-,IC50,-,0.5 µM
COc1ncnc(NS(=O)(=O)c2ccc(N)cc2)c1OC,DHPS,-,IC50,-,0.74 µM
Nc1nc(N)c(-c2ccc(Cl)c(Cl)c2)c(COc2ccccc2)n1,Dihydrofolate reductase,-,IC50,-,13.5 µM
Nc1nc(N)c2c(n1)Cc1ccccc1-2,Dihydrofolate reductase,-,IC50,-,82 µM
CCCc1c(OC)cc(Cc2cnc(N)nc2N)cc1OC,DHFR,-,IC50,-,20 µM
Cc1c(CNc2ccc(Cl)c(C(=O)NC(CC(=O)O)C(=O)O)c2)ccc2nc(N)nc(N)c12,Dihydrofolate reductase,-,IC50,-,0.0054 µM
CC(=CCC/C(C)=C/COCCCc1ccccc1)CCC(=O)N(C)C,Oxidosqualene cyclase,-,IC50,-,>10 µM
COc1cc(Cc2cnc(N)nc2N)cc(OCCC(=O)NCC(=O)O)c1Br,DHFR,-,IC50,-,10 µM
Nc1nc(N)c2c(n1)Cc1ccc(Cl)cc1-2,Dihydrofolate reductase,-,IC50,-,5.6 µM
O=C1OC2(c3ccccc31)c1ccc(O)c(O)c1Oc1c2ccc(O)c1O,DHFR,-,IC50,-,228 µM
COc1cc2c(cc1OC)-c1c(N)nc(N)nc1C2,Dihydrofolate reductase,-,IC50,-,>58 µM
N#CCc1nc(N)nc(N)c1-c1ccc(Cl)cc1,Dihydrofolate reductase,-,IC50,-,490 µM
CC(=O)c1ccc(NCc2cnc3nc(N)nc(N)c3n2)cc1,DHFR,-,IC50,-,0.72 µM
Cc1cc(NS(=O)(=O)c2ccc(N)cc2)nc(C)n1,DHPS,-,IC50,-,0.37 µM
Nc1nc(N)c2nc(CSc3ccccc3)cnc2n1,Dihydrofolate reductase,-,IC50,-,9.5 µM
Nc1nc(N)c2c(ccc3cc(Br)ccc32)n1,Dihydrofolate reductase,-,IC50,-,0.5 µM
COc1ccc2nc(NC(=O)Nc3ccc(Cl)c(Cl)c3)sc2c1,DHFR,100 µM,inhibition,-,24%
Nc1nc(N)c2c(ccc3ccc(Cl)cc32)n1,Dihydrofolate reductase,-,IC50,-,0.12 µM
Nc1nc(N)c(-c2ccc(Cl)c(Cl)c2)c(COc2cccc3ccccc23)n1,DHFR,-,IC50,-,3.9 µM
c1cc2nc(CCCCc3nc4ccc(C5=NCCN5)cc4[nH]3)[nH]c2cc1C1=NCCN1,Topoisomerase I,-,IC50,-,≤10 µM
N=C(N)c1ccc2nc(CCc3nc4ccc(C(=N)N)cc4[nH]3)[nH]c2c1,Topoisomerase I,-,IC50,-,3.1 µM
CC(CCCN)Nc1cc(O)c(O)c2cccnc12,Dihydroorotate dehydrogenase,100 µM,inhibition,-,0%
CN(Cc1cnc2nc(N)nc(N)c2n1)c1c(Cl)cc(C(=O)N[C@@H](CCC(=O)O)C(=O)O)cc1Br,Dihydrofolate reductase,-,IC50,-,0.00021 µM
CN(Cc1cnc2nc(N)nc(N)c2n1)c1ccc(C(=O)N[C@@H](CCC(=O)O)C(=O)O)c2ccccc12,DHFR,-,IC50,-,0.00019 µM
N=C(N)c1ccc2nc(/C=C/c3nc4ccc(C(=N)N)cc4[nH]3)[nH]c2c1,Topoisomerase I,-,IC50,-,≤10 µM
CN(Cc1cnc2nc(N)nc(N)c2n1)c1ccc(C(=O)N[C@H](CCC(=O)O)C(=O)O)cc1F,DHFR,-,IC50,-,0.00072 µM
N=C(N)c1ccc2nc(CCc3nc4ccc(C(=N)N)cc4[nH]3)[nH]c2c1,Topoisomerase II,-,IC50,-,0.31–1.25 µM
Cc1cc(NS(=O)(=O)c2ccc(N)cc2)no1,Oxidosqualene cyclase,-,Ki,HPLC,59 µM
CCc1c(CNc2ccc(C(=O)NC(CC(=O)O)C(=O)O)cc2)ccc2nc(N)nc(N)c12,Dihydrofolate reductase,-,IC50,-,0.0097 µM
COCCCCOc1ccc2c(-c3cnc(N)nc3N)cccc2c1,DHFR,-,IC50,-,80 µM
Nc1ccc(S(=O)(=O)Nc2nccs2)cc1,DHPS,-,Ki,-,0.0105 µM
CN(Cc1cnc2nc(N)nc(N)c2n1)c1ccc(C(=O)N[C@H](CCC(=O)O)C(=O)O)cc1I,Dihydrofolate reductase,-,IC50,-,0.000104 µM
N=C(N)c1ccc2nc(/C=C/c3nc4ccc(C(=N)N)cc4[nH]3)[nH]c2c1,Topoisomerase I,-,IC50,-,3.1 µM
COc1ccccc1NC1=C(Cl)C(=O)C(Nc2ccccc2OC)=C(Cl)C1=O,DHFR,100 µM,inhibition,-,31%
Nc1ccc(S(=O)(=O)Nc2ccc(Cl)nn2)cc1,DHPS,-,Ki,-,0.01 µM
Cc1cc2c(cc1C)-c1c(N)nc(N)nc1CC2,DHFR,-,IC50,-,0.59 µM
O=C(O)c1cc(Sc2ccc(O)c(C(=O)O)c2)ccc1O,DHFR,100 µM,inhibition,-,13%

A second listing of 5 rows from above:

| structure | target | dose | read-out | read by | value |
|---|---|---|---|---|---|
| Nc1nc(N)c2c(ccc3cc(Br)ccc32)n1 | Dihydrofolate reductase | - | IC50 | - | 0.5 µM |
| CC(=O)c1ccc(NCc2cnc3nc(N)nc(N)c3n2)cc1 | DHFR | - | IC50 | - | 0.72 µM |
| COc1cc2c(cc1OC)-c1c(N)nc(N)nc1C2 | Dihydrofolate reductase | - | IC50 | - | >58 µM |
| COc1ncnc(NS(=O)(=O)c2ccc(N)cc2)c1OC | DHPS | - | IC50 | - | 0.74 µM |
| Cc1cc(NC(=O)Oc2ccc3c(C)cc(=O)oc3c2)cc(Br)c1NC(=O)Oc1ccc2c(C)cc(=O)oc2c1 | DHFR | - | IC50 | - | 90 µM |

Lines come from different laboratories, so protocols vary. Inhibition is in % at the dose shown (toxicity tests: loss of growth or viability). Two numbers with a dash give a range or band. ICn: concentration for n% inhibition.